In the test the test system is cystic fibrosis. The test is described as follows: Inhaled gas / nebulized treatment of patients with cystic fibrosis (Examples IV, IX, XI, XII). The test is classed as in vivo, human. Particulars: Example IV.
[1] abbreviates: after the inhaled gas, nebulized solution 100 mM per 3 cc normal saline every 6 hours, maintenance.

Consider thionitrosochloronitrite, for which, under setting [1], the GSNO levels entry is reported as “sustained for four days” and the “infection (pseudomonas pneumonia)” value is reported as “infection resolves”. In addition, the “GSNO (bronchoalveolar lavage)” value (person, cystic fibrosis, complete deficiency of GSNO, inhaled 5 parts per million in nitrogen) is “repletion of GSNO”.
